Compound potency records, mixed from different reports. Data source: NIAID ChemDB in PubChem.

Common to all: cytotoxicity tests; cell line: H9; read-out: CC50

CCn is the concentration with n% toxicity to the cells.

| smiles | method | value |
|---|---|---|
| CC1(C)Oc2ccc3cc(CBr)c(=O)oc3c2[C@@H](OC(=O)C23CCC(C)(C(=O)O2)C3(C)C)[C@H]1OC(=O)C12CCC(C)(C(=O)O1)C2(C)C | XTT | >11.1 µM |
| CC(C)C(NC(=O)C[C@@H]1O[C@@H]1[C@H](Cc1ccccc1)NC(=O)[C@@H](NC(=O)c1cc(=O)c2ccccc2o1)C(C)(C)S(C)(=O)=O)C(C)C | - | >100 µM |
| CC(C)CC(=O)O[C@H]1CC[C@]2(C)[C@H]3CC[C@@H]4[C@H]5[C@H](C(C)C)CC[C@]5(C(=O)O)CC[C@@]4(C)[C@]3(C)CC[C@H]2C1(C)C | - | 83 µM |
| O=C1OCC2OC(=O)c3cc(O)c(O)c(O)c3-c3c(O)c(O)c(O)c4c3C(=O)OC(C2OC(=O)c2cc(O)c(O)c(O)c2-c2c1cc(O)c(O)c2O)C1OC(=O)c2c-4c(O)c(O)c(O)c2[C@H]1O | - | 15 µM |
| CC(C)C(NC(=O)C[C@@H]1O[C@@H]1[C@H](Cc1ccccc1)NC(=O)[C@@H](NC(=O)OCc1ccccn1)C(C)(C)S(C)(=O)=O)C(C)C | - | >100 µM |
| CCOC(=O)c1cc(C(=O)NCc2ccccn2)n2ccc(C(=O)c3ccco3)cc12 | MTT | 107.3 µM |
| C=C(C)[C@@H]1CC[C@]2(COC(=O)CC3(CC(=O)O)CCCC3)CC[C@]3(C)[C@H](CC[C@@H]4[C@@]5(C)CCC(=O)C(C)(C)[C@@H]5CC[C@]43C)[C@@H]12 | - | 12.8 µM |
| CC(C)C(NC(=O)C[C@@H]1O[C@@H]1[C@H](Cc1ccccc1)NC(=O)[C@@H](NC(=O)c1ccc2ccccc2n1)C(C)(C)S(C)(=O)=O)C(C)C | - | >100 µM |
| C=C(C)[C@@H]1CC[C@]2(C(=O)OC(=O)N3CCOCC3)CC[C@]3(C)[C@H](CC[C@@H]4[C@@]5(C)CC[C@H](O)C(C)(C)[C@@H]5CC[C@]43C)[C@@H]12 | - | 11.4 µM |
| CCOC(=O)c1cc(C(=O)c2ccccc2)n2ccc(C(=O)NCc3cccnc3)cc12 | MTT | 114.1 µM |
| CC(=O)OCc1c(C)c2ccc3c(c2oc1=O)[C@@H](OC(=O)C12CCC(C)(C(=O)O1)C2(C)C)[C@@H](OC(=O)C12CCC(C)(C(=O)O1)C2(C)C)C(C)(C)O3 | XTT | 14.8 µM |
| CC(C)[C@@H]1CC[C@]2(C(=O)O)CC[C@]3(C)[C@H](CC[C@@H]4[C@@]5(C)CC[C@H](OC(=O)COCC(=O)O)C(C)(C)[C@@H]5CC[C@]43C)[C@@H]12 | - | 13.1 µM |
| Oc1cc(O)c2c(c1)O[C@H](c1ccc(O)c(O)c1)[C@H](O)[C@H]2c1c(O)cc(O)c2c1O[C@@]1(c3ccc(O)c(O)c3)Oc3cc(O)c4c(c3[C@@H]2[C@H]1O)O[C@H](c1ccc(O)c(O)c1)[C@H](O)[C@H]4c1c(O)cc(O)c2c1O[C@H](c1ccc(O)c(O)c1)[C@H](O)C2 | - | >25 µM |
| CC(C)[C@H](Cc1ccccc1)NC(=O)C[C@@H]1O[C@@H]1[C@H](Cc1ccccc1)NC(=O)[C@@H](NC(=O)OCc1ccncc1)C(C)(C)S(C)(=O)=O | - | >100 µM |
| Oc1cc(O)c2c(c1)O[C@@]1(c3ccc(O)c(O)c3)Oc3cc(O)c4c(c3[C@@H]2[C@H]1O)O[C@H](c1ccc(O)c(O)c1)[C@H](O)[C@H]4c1c(O)cc(O)c2c1O[C@H](c1ccc(O)c(O)c1)[C@H](O)C2 | - | >25 µM |
| CCOC(=O)c1cc(C(=O)c2cccc(Br)c2)n2ccc(C(=O)NCc3ccccn3)cc12 | MTT | 54 µM |
| CC(=O)OCc1cc2ccc3c(c2oc1=O)[C@@H](OC(=O)[C@@]12CC[C@@](C)(C(=O)O1)C2(C)C)[C@@H](OC(=O)[C@@]12CC[C@@](C)(C(=O)O1)C2(C)C)C(C)(C)O3 | XTT | 11.6 µM |
| C=C(C)[C@@H]1CC[C@]2(CNC(=O)CC3(CC(=O)O)CCCC3)CC[C@]3(C)[C@H](CC[C@@H]4[C@@]5(C)CC[C@H](NC(=O)CC6(CC(=O)O)CCCC6)C(C)(C)[C@@H]5CC[C@]43C)[C@@H]12 | - | 15 µM |
| Cc1c(CO)c(=O)oc2c3c(ccc12)OC(C)(C)[C@H](OC(=O)C12CCC(C)(C(=O)O1)C2(C)C)[C@@H]3OC(=O)C12CCC(C)(C(=O)O1)C2(C)C | XTT | 24.9 µM |
| CCOC(=O)c1cc(C(=O)c2ccccc2)n2ccc(C(=O)NCc3ccccn3)cc12 | MTT | 151 µM |
| C=C(C)[C@@H]1CC[C@]2(COC(=O)CC3(CC(=O)O)CCCC3)CC[C@]3(C)[C@H](CC[C@@H]4[C@@]5(C)CC=CC(C)(C)[C@@H]5CC[C@]43C)[C@@H]12 | - | 36.2 µM |
| CC(C)[C@H](Cc1ccccc1)NC(=O)C[C@@H]1O[C@@H]1[C@H](Cc1ccccc1)NC(=O)[C@@H](NC(=O)COc1cccc2cnccc12)C(C)(C)S(C)(=O)=O | - | >100 µM |
| CC(C)[C@@H]1CC[C@]2(C(=O)OCc3ccccc3)CC[C@]3(C)[C@H](CC[C@@H]4[C@@]5(C)CC[C@H](OC(=O)CCCC(=O)O)C(C)(C)[C@@H]5CC[C@]43C)[C@@H]12 | - | 9.3 µM |
| CC(=O)OCc1cc2c(C)cc(=O)oc2c2c1OC(C)(C)[C@H](OC(=O)C13CCC(C)(C(=O)O1)C3(C)C)[C@@H]2OC(=O)C12CCC(C)(C(=O)O1)C2(C)C | XTT | >14.1 µM |
| CCOC(=O)c1cc(C(=O)c2ccccc2)n2ccc(C(=O)N[C@@H](C(=O)OC)c3ccccc3)cc12 | MTT | 229 µM |
| CC(C)C(NC(=O)C[C@@H]1O[C@@H]1[C@H](Cc1ccccc1)NC(=O)[C@@H](NC(=O)CN1CCCC1)C(C)(C)S(C)(=O)=O)C(C)C | - | >100 µM |
| C=C(C)[C@@H]1CC[C@]2(CN)CC[C@]3(C)[C@H](CC[C@@H]4[C@@]5(C)CC[C@H](N)C(C)(C)[C@@H]5CC[C@]43C)[C@@H]12 | - | 0.52 µM |
| Oc1cc(O)c2c(c1)O[C@@]1(c3ccc(O)c(O)c3)Oc3cc(O)c4c(c3[C@@H]2[C@H]1O)O[C@H](c1ccc(O)c(O)c1)[C@H](O)C4 | - | >25 µM |
| CC(C)[C@@H]1CC[C@]2(C(=O)O)CC[C@]3(C)[C@H](CC[C@@H]4[C@@]5(C)CC[C@H](OC(=O)C(C)(C)C)C(C)(C)[C@@H]5CC[C@]43C)[C@@H]12 | - | 83 µM |

4 of the rows above, restated:

Cc1c(CO)c(=O)oc2c3c(ccc12)OC(C)(C)[C@H](OC(=O)C12CCC(C)(C(=O)O1)C2(C)C)[C@@H]3OC(=O)C12CCC(C)(C(=O)O1)C2(C)C ; method: XTT ; value: 24.9 µM
C=C(C)[C@@H]1CC[C@]2(CN)CC[C@]3(C)[C@H](CC[C@@H]4[C@@]5(C)CC[C@H](N)C(C)(C)[C@@H]5CC[C@]43C)[C@@H]12 ; value: 0.52 µM
CCOC(=O)c1cc(C(=O)c2cccc(Br)c2)n2ccc(C(=O)NCc3ccccn3)cc12 ; method: MTT ; value: 54 µM
CC(C)[C@H](Cc1ccccc1)NC(=O)C[C@@H]1O[C@@H]1[C@H](Cc1ccccc1)NC(=O)[C@@H](NC(=O)OCc1ccncc1)C(C)(C)S(C)(=O)=O ; value: >100 µM

Lines come from different laboratories, so protocols vary. An empty or dashed field is not shown.